Drawing on publication PMC12658140, this text covers Kd for one molecule.

In the experiment the target is H3 stem with I32HA2 (influenza A virus H3N2 A/Finland/486/2004). Nature of the experiment: BLI. (In general: In BLI a coated tip is dipped into the sample, and binding shifts an interference pattern.)

B1: AG2-G02 Fab (Fab, V domains shown)
VH: VQLVQSGAEMKKPGASVKVSCKASGYTFSAYYIHWVRQAPGQGLEWMGRINTDSGGTNFAQQFEGRVTMTRDTSISTAYMELSSLRSDDTAVYYCARGYDFWLGSYRAGGWFDPWGQGTLVTVSS
VL: [no letters for about 100 residues]GFTFGPGTKVDIK
In general, Kd refers to a measure of binding affinity in units of concentration. Read a low Kd as a tighter complex. B1: the Kd came to 0.21 nM. This counts as sub-nanomolar.
